In this series the test system is tobacco etch virus protease (TEV). As to the kind of experiment: Dual-signal CLiPS, TEV cleavage of cell-surface displayed substrates. Particulars: SAPE labeling; for Fl after TEV: fluorescence after 1 hr with 10 units of TEV; for Fl: fluorescence of clonal population without TEV. It counts as biochemical. How it is done: Construction of a control plasmid (pBSGXP2) expressing a fusion of the streptavidin-binding peptide (WCHPMWEVMCLR) (SEQ ID NO:34) (Rice et. al. 2006) and a GGSGGS (SEQ ID NO:01) sequence flanked by flexible linkers on the amino terminus of circularly permuted outer membrane X (CPX) and a binding peptide of SLP-76 (P2) on the carboxy-terminus was performed using primers 1, 2, and 3 with primers 4 and 5. […] Products were digested with SfiI and ligated to similarly digested pBAD33. A substrate library (pBS5XP2) of the form X5, where X is any amino acid, was constructed using PCR with a synthetic oligonucleotide incorporating NNS codons (primer 9) along with primers 1 and 8 (Table 2). The product was digested with SfiI and ligated into a similarly digested pBAD33 plasmid. Transformation of the plasmid library into electrocompetent MC1061 yielded 6×10^7 colony forming units.
A second substrate library (pBSToptP2) was created using primer 10 with primers 1 and 8. The product was digested with SfiI and ligated into a similarly digested pBAD33 plasmid. Transformation of the plasmid library into electrocompetent MC1061 yielded 5×10^7 colony forming units.
Streptavidin conjugated phycoerythrin (SAPE) was used for labeling streptavidin binding affinity ligand on the N- and C-termini of CPX (FIG. 15). […] Of the three fluorescent proteins AlajGFP-Mona gave a higher fluorescence and was used for all labeling. The resulting CPX scaffold required a 3 hr induction time due to the additional peptide that was fused to the C-terminus. For optimum labeling of cells without protease reaction, the cells were incubated for 1 hr at 22° C. with SAPE (50 nM) and AlajGFPM (250 nM). […] For the described example below 1 hr incubation was used.
For screening and clone analysis, overnight cultures were subcultured by dilution into fresh medium (1:50) and grown for 2 hrs at 37° C. The subculture was induced with 0.1% arabinose and incubated with shaking at room temperature for 3 hrs. Cell aliquots were washed with PBS (pH 8.0), and optical density at 600 nm (OD600) was measured to estimate cell concentration. Cells (10^8) were pelleted by centrifugation, the supernatant was removed, and the cells were resuspended in reaction buffer (10 μL). Following addition of the enzyme, the reaction mixture was incubated at room temperature on a rotary shaker. Cells were removed and diluted 100-fold in PBS to stop the reaction, pelleted by centrifugation, and resuspended in PBS containing SA-PE (50 nM) and AlajGFP-MONA. After incubation at room temperature (1 hr), cells were washed with PBS and analyzed or sorted using a FACSAria™ cell sorter (Becton, Dickinson and Company).
Specifically, for each sample, conversion was determined by flow cytometry analyses using the relationship
[formula] where (FL−) is the fluorescence after incubating without enzyme, (FL+) is fluorescence after incubation with enzyme, and (FL0) is fluorescence of unlabeled cells. For the recombinant FRET protein reactions, conversion was calculated by dividing the ratiometric FRET signal (yellow fluorescence/cyan fluorescence) by the FRET ratio that results from complete cleavage (Felber et al., Biotechniques 36:878-85 (2004)). For synthetic peptide reactions, conversion was calculated by dividing the fluorescence increase by the fluorescence change due to complete hydrolysis. The reported enteropeptidase KM for the physiological substrate tripsinogen is 17 μM (Light et al., J Biol Chem 259:13195-8 (1984)), but 600 μM for short DDDDK (SEQ ID NO:02) peptides (Lu et al., J Mol Biol 292:361-73 (1999)). Given KM for short peptides is much larger than the substrate concentrations that were used (<5 μM), the Michaelis-Menton model simplifies to
The reaction buffer for TEV assays was 50 mM Tris-Cl pH 8.0 supplemented with 20. mM NaCl and 2 mM CaCl2. […]

With DRELY [F04], the “Fl after TEV” value is reported as 1421 and the Fl turned out to be 5906.
Take WESLY [E11]: the “Fl after TEV” value was 1362 and the Fl amounted to 5049.
Regarding GEDLL [F09], the “Fl after TEV” value was 1552 and the Fl is 4809.
Take WEPLW [H08]: the “Fl after TEV” value came to 1252 and the Fl turned out to be 3971.
On to LEQLI [B09], for which the “Fl after TEV” value came to 980 and the Fl is 3254.
On the same counts, the results for PEVIY [C10] are 1381 and 6109.
As to EEELY [B02], the “Fl after TEV” value worked out at 1081 and the Fl came to 3266.
EEAVL [H07]: the “Fl after TEV” value stood at 1043 and the Fl was 2992.

Source of the values: patent publication US7666817B2, “Cellular libraries of peptide sequences (CLiPS) and methods of using the same” (The Regents of the University of California, priority 2005, dated 2010).
